Results on one compound are retold here after patent US7691877B2, “Pharmaceuticals” (priority 2006, dated 2010).

Chains of the proteins cited; added tags and fusions are not shown. Residues count along the entry.
UniProt Q9NYK1, 27-1049 limits assumed: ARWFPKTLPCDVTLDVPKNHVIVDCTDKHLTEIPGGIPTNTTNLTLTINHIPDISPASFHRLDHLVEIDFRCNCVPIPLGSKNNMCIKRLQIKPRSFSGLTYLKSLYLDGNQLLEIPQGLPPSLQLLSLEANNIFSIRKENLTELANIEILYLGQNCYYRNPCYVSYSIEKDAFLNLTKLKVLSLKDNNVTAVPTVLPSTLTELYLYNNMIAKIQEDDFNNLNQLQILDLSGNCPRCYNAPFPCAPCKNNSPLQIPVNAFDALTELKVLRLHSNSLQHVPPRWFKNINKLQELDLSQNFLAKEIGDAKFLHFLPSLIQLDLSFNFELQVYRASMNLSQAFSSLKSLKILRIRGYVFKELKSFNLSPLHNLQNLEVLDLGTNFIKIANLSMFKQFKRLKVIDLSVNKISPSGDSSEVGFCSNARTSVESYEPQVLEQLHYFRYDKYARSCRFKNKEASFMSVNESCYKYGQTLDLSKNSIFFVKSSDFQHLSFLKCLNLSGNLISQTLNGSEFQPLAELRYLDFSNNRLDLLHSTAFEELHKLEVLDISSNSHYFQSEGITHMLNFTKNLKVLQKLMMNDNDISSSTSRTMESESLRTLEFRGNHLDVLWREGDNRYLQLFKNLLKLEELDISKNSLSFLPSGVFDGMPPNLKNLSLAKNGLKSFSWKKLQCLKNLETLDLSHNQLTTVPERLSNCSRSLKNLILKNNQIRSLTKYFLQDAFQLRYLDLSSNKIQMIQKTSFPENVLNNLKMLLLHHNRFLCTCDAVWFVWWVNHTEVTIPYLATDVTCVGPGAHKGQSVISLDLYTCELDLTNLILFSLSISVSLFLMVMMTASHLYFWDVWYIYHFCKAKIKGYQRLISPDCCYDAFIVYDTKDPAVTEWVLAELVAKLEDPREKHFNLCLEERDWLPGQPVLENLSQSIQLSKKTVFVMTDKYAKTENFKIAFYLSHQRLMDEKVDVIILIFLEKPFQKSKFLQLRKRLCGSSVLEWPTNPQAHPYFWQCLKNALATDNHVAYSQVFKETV

The target of the experiment is TLR7 receptor (Homo sapiens, UniProt Q9NYK1). Description: PBL/HCV replicon bioassay. The settings on record: concentration applied to PBL (24 h) giving 50% reduction of HCV replicon levels (luciferase) after transfer of PBL culture medium to Huh-7 replicon cells (48 h). The experiment is classed as cell-based.

As to `Cc1cc2c([nH]c(=O)n2Cc2ccc(F)cc2)c(N)n1`, the EC50 was 926 nM.
